Only a part is listed here, and it is no random draw. Activity calls are given as the source filed them. Cut-off read from the data, not from the text of the source: active = activity change below about -50%; inconclusive = between about -30% and that limit; inactive = weaker than that.
% is set by controls: 0 for no effect and ±100 for the full control effect.

By UniProt entry, the sequences of proteins in these tests, tags left out.
UniProt Q9GZU1, whole entry: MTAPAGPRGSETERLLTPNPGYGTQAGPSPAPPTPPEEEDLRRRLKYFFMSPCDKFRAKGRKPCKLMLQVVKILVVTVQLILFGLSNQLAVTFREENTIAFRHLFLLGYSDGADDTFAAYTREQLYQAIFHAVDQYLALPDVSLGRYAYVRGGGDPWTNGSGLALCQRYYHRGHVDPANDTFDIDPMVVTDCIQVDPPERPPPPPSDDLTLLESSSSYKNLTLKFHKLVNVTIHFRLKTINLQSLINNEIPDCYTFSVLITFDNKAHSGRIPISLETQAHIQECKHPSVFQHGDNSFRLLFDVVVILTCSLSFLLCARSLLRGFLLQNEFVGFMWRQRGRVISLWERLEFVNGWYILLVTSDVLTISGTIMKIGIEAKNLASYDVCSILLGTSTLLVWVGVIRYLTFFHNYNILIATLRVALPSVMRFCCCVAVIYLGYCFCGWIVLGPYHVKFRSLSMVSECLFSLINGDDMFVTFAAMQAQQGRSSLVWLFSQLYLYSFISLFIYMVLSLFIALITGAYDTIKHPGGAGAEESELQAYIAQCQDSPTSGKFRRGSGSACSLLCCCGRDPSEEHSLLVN

For the experiment, the target named is Mucolipin-1 (Homo sapiens) (UniProt Q9GZU1). Nature of the experiment: qHTS for Inhibitors of the Human Mucolipin Transient Receptor Potential 1 (TRPML1).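 Note: stimulus is agonist 54-4 at its EC80 concentration.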 The conditions noted are these: TRPML1-inducible cells, Ca2+ dye fluorescence, FDSS; active compounds read low; inhibition of EC80 agonist-evoked calcium signal. From the text:
Mutations of human Mucolipin transient receptor potential 1 (TRPML1) cause type IV mucolipidosis (ML4), a devastating neurodegenerative disease in young children. […] Currently, there is no treatment for ML4. […] Under physiological conditions, TRPMLs regulate membrane trafficking by transducing information about PI(3,5)P2 levels into changes in juxtaorganellar Ca2+, thereby triggering membrane fusion/fission events in the late endocytic pathways (endolysosomal trafficking). In addition, TRPML1 mediates release of Fe2+ from late endosomes and lysosomes, which is essential for cellular iron metabolism. Thus, impaired ion (Ca2+ and Fe2+) homeostasis underlies lysosomal dysfunction and ML4 phenotypes. In ML4 cells, the problem is twofold. First, defective Ca2+-dependent membrane trafficking due to TRPML1-deficiency causes accumulation of lipids and other bio-materials in the lysosome. The second strike comes from the lysosomal iron overload (due to impairment of TRPML1's Fe2+ conductivity), which converts the accumulated materials into the nondegradable (resistant to lysosomal degradation) lipofuscin (also called aging pigment) in the lysosome. Lipofuscin accumulation dramatically compromises the functions of lysosomes.
Niemann-Pick type C (NPC) disease is another lysosome storage disease (LSD) with severe neurodegeneration during the childhood. Currently, there is no cure for NPC. […] Thus, TRPML1 is likely to be an essential regulator of lysosome ion homeostasis. We specifically hypothesize that stimulating TRPML1's Fe2+/Ca2+ channel activity in the lysosome using synthetic agonists can alleviate neurodegeneration associated with ML4 or NPC.
To this end, a high throughput screen was developed in a miniaturized format to screen against the Molecular Libraries Small Molecule Repository (MLSMR) to find small molecules that act either as inhibitors or agonist against the TRPML1 channel.
NIH Chemical Genomics Center [NCGC]
NIH Molecular Libraries Probe Centers Network [MLPCN]
Assay Submitter (PI): Haoxing Xu, University of Michigan Ann Arbor
TRPML1-DL cells are dissociated from flasks, counted and, brought up to a density of 500,000 cells per mL of media containing a 1X Tet inducer. Using a Multidrop Combi, 3 uL of this cell solution is dispensed to each well of a 1536 TC treated, black, clear bottom hi base plate for a final cell density of 1,500 cells per well. The assay plates are incubated overnight (approximately 16 hours) at 37 degrees C and 5% CO2. Using a Multidrop Combi, 2 uL of ABD Ca8 no wash dye plus quencher is added to each well. The assay plates incubate at room temperature in the dark for 45-90 minutes. The assay plate is read on the FDSS using the following protocol: 10 second baseline read, 23 nL of compounds and controls are added using 1536 pintool, agonist read for 110 seconds, 1 uL EC80 addition (4 uM final 54-4 diluted in media), antagonist read for 110 seconds.
Take `CC(=O)Nc1ccc(Oc2c([N+](=O)[O-])cc([N+](=O)[O-])cc2[N+](=O)[O-])cc1`: the activity change, negative = inhibition is inactive: 3.9%. With `O=C(OCCN1CCN(CCOCc2ccccc2)CC1)C(O)(c1ccccc1)c1ccccc1`, the activity change, negative = inhibition was inactive: 12.3%. To `Cc1ccccc1CN(C)C(=O)COC(=O)C(O)(c1ccccc1)c1ccccc1` belongs inactive: -3.59%; to `C[C@@H]1C=CCP(=O)(Oc2ccccc2)O1` (some centres undefined), inactive: 4.64%; to `C[C@H]1OP(=O)(Oc2ccccc2)C[C@@H]2O[C@@H]21` (some centres undefined), inactive: -0.199%.

In the case of `N#C/C(=C\c1ccc(N(CCBr)CCBr)cc1)C(N)=O`, the activity change, negative = inhibition is inactive: 13.4%. To `CC(=O)c1ccc(N2CC2c2ccncc2)cc1` (centres undefined) belongs inactive: 26.8%; to `COC(=O)C1(C)COP(=O)(NCc2ccccc2)OC1` (centres undefined), inactive: 6.7%. As for `c1nnnn1CCn1cnnn1`, the activity change, negative = inhibition is inactive: 10.9%.

For the compound `CCOP(C)(=S)SCC(=O)NC(C)(CC)C(=O)O` (centres undefined), the activity change, negative = inhibition is inactive: 10.2%. Consider `O=P(Nc1nccs1)(c1ccccc1)c1ccccc1`, for which the activity change, negative = inhibition is inactive: -13.8%. To `CC(C)C(=O)NC(Sc1ccccc1)C(Cl)(Cl)Cl` (centres undefined) belongs inactive: 4.86%; to `CP(=O)(Nc1ccc(SC(F)(F)F)cc1)Oc1ccc(F)cc1` (centres undefined), inactive: -7.12%. The value for `Cc1ccccc1NP(C)(=O)Nc1ccccc1C` was inactive: 1.36%; that for `CP(=O)(Nc1ccc2c(c1)OCCO2)Oc1ccccc1` (centres undefined) was inactive: 2.99%; that for `COc1ccc(NP(C)(=O)Oc2ccccc2OC)cc1` (centres undefined) was inactive: 36%.

As for `O=P(Nc1nc2ccccc2s1)(c1ccccc1)c1ccccc1`, the activity change, negative = inhibition was inactive: 26.4%. Regarding `CN(C)CCOC(=O)C(O)(c1ccccc1)C1CCCCC1` (centres undefined), the activity change, negative = inhibition was inactive: 0.48%. To `C[C@H]1OP(=O)(Oc2ccccc2)[C@H](O)[C@H](O)[C@H]1N=[N+]=[N-]` (some centres undefined) belongs inactive: 12.5%; to `CN(C)C1(CNC(=O)c2ccc(Cl)c(S(N)(=O)=O)c2)CCCCC1`, inactive: 2.12%; to `O=P(Nc1ccccn1)(c1ccc(Br)cc1)c1ccc(Br)cc1`, inactive: 19%. Turning to `COc1ccc(OP(C)(=O)Nc2cccc(Br)c2)cc1` (centres undefined), the activity change, negative = inhibition is inactive: 2.43%. To `COc1ccc(N)c([N+](=O)[O-])c1[N+](=O)[O-]` belongs inactive: -0.171%; to `O=C(OC1CN2CCC1CC2)c1cccc(Cl)c1` (centres undefined), inactive: 6.66%; to `Cc1c(C(c2ccc3c(c2)OCO3)c2c(C)n(C)n(-c3ccccc3)c2=O)c(=O)n(-c2ccccc2)n1C.O=[N+]([O-])c1cc([N+](=O)[O-])c(O)c([N+](=O)[O-])c1`, inactive: -8.92%. The value for `Nc1ccc([As](=O)(O)c2ccc([N+](=O)[O-])cc2)cc1` was inactive: -3.42%. On to `C(Cc1nn[nH]n1)Cc1nn[nH]n1`, for which the activity change, negative = inhibition was inactive: 2.17%. The value for `O=[As](O)(c1ccccc1)c1ccc(O)cc1` was inactive: -11.2%; that for `Cc1cc(-c2cccc3ccccc23)c(C)cn1.O=[N+]([O-])c1cc([N+](=O)[O-])c(O)c([N+](=O)[O-])c1` was inactive: 22.9%. To `CC(=O)NC(SC(=S)N(C)C)C(Cl)(Cl)Cl` (centres undefined) belongs inactive: 36.1%. In the case of `O=[N+]([O-])c1ccc(OP2(=O)COCCO2)cc1` (centres undefined), the activity change, negative = inhibition was inactive: 7.18%.

As to `CP(=O)(OC12CC3CC(CC(C3)C1)C2)OC12CC3CC(CC(C3)C1)C2`, the activity change, negative = inhibition was inactive: 5.81%.

On to `CCOC(=O)c1ccc(NP(C)(=O)Oc2ccc(Cl)cc2)cc1` (centres undefined), for which the activity change, negative = inhibition was inactive: -6.25%.

Turning to `O=C(Nc1cc([As](=O)(O)O)ccc1O)c1ccccc1`, the activity change, negative = inhibition is inactive: 8.43%. As to `O=P1(N(CCCl)CCCl)OCCCS1` (centres undefined), the activity change, negative = inhibition is inactive: 19.3%. On to `Nc1ccc2c(ccc3cccnc32)n1.O=[N+]([O-])c1cc([N+](=O)[O-])c(O)c([N+](=O)[O-])c1`, for which the activity change, negative = inhibition was inactive: 19.4%. For `O=C(O)CNc1ccc([As](=O)(O)O)cc1`, the activity change, negative = inhibition was inactive: -20.7%. With `O=[N+]([O-])c1cccc(NC2=NCC(CBr)S2)c1` (centres undefined), the activity change, negative = inhibition is inactive: -0.506%. As for `COC(=O)C1(C)COP(=O)(Nc2ccccc2)OC1` (centres undefined), the activity change, negative = inhibition was inactive: 10.9%. On to `O=[N+]([O-])c1ncn(CCn2ncnc2[N+](=O)[O-])n1`, for which the activity change, negative = inhibition was inactive: 2.77%. As to `CC(C)(C)C(=O)NC(Sc1ccncn1)C(Cl)(Cl)Cl` (centres undefined), the activity change, negative = inhibition was inactive: -9.54%.

Take `CP(=O)(Oc1ccccc1)N1CCOC1=O` (centres undefined): the activity change, negative = inhibition is inactive: 2.99%. The value for `Cc1ccc(NP(=O)(Oc2ccccc2)Oc2ccccc2)nc1` was inactive: -0.564%; that for `O=[N+]([O-])c1cc([N+](=O)[O-])c(CCNc2ccccc2)c([N+](=O)[O-])c1` was inactive: -0.907%. For the compound `CCc1nc2c(n1)c1c(non1O)c1c2no[n+]1[O-]`, the activity change, negative = inhibition was inactive: -16.8%. To `CCc1ccc(OP(C)(=O)Nc2cccnc2)cc1` (centres undefined) belongs inactive: -10.7%; to `COc1ccccc1OP(C)(=O)Nc1c(C)n(C)n(-c2ccccc2)c1=O` (centres undefined), inactive: 4.08%; to `CC(=O)N1C2C3N(C(C)=O)C1C1N(C(C)=O)C(C(N1C(C)=O)N3C(C)=O)N2C(C)=O`, inactive: 7.35%. As to `O=[N+]([O-])c1cccc2n[nH]nc12`, the activity change, negative = inhibition is inactive: -1.59%.

Values taken from PubChem BioAssay AID624415 (National Center for Advancing Translational Sciences (NCATS), 2012).
